From patent publication US20230287070A1, “NOVEL TUMOR-SPECIFIC ANTIGENS FOR ACUTE MYELOID LEUKEMIA (AML) AND USES THEREOF” (UNIVERSITE DE MONTREAL, priority 2020, published 2023)
Some compounds share one wording; it may come from a single statement.

How the values were obtained:
AML specimens vs MPCs = assay: Fold change of RNA expression between AML specimens and MPCs; set-up: species or system human
[1] = test system: AML, MPCs, other normal hematopoietic cells and normal adult tissues, including mTECs; assay: Classification of MAPs of interest (MOI) by decision tree on RNA expression (TSA^hi, TSA^lo, TAA, HSA); set-up: species or system human; conditions: decision tree on RNA expression in AML, MPCs and normal tissues (thresholds 8.55 RPHM, FC 5)

With VLFGGKVSGA (listed as Homo sapiens) the AML/MPC (AML specimens vs MPCs) was 18.9 and the Classific. [1] was “TSA^hi (TSAs with FC of at least 5 between AML and MPCs were flagged as TSA^hi)”.
